Measured values as given in patent US9611303B2, “Modified biotin-binding protein” (Japan Tobacco Inc., priority 2009, dated 2017).

B1: TM2 W108R: TM2 in which the 108th tryptophan was replaced with arginine (protein)
chain: MSDVQSSLTGTWYNELNSKMELTANKDGTLTGKYLSKVGDVYVPYPLSGRYNLQPPAGQGVALGWAVSWENSKIHSATTWSGQFFSESSPVILTQWLLSSSTARGDVRESTLVGNDSFTKTAPTEQQIAHAQLHCRAPRLK
B2: TM2 Y34A: TM2 in which the 34th tyrosine was replaced with alanine (protein)
chain: B1 chain with Y34A, R108W
B3: TM2 S18A: TM2 in which the 18th serine was replaced with alanine (protein)
chain: B1 chain with S18A, R108W

Assay: Expression of LATM2 in soluble fraction of E. coli
Settings: Western blotting

Row | Molecule | expression in E. coli soluble fraction
1 | B1 | hardly observed
2 | B2 | hardly observed
3 | B3 | hardly observed

Substitutions are numbered along the chain they refer to. Names may count otherwise.
